Pooled drug test results. Numbers come from NIAID ChemDB, via PubChem.

All rows: growth or infection tests; agent: HIV-2

Percent inhibition refers to the dose given; in toxicity tests it is the harm to the cells. ECn is the concentration giving n% inhibition of infection, replication or growth. Blank or dashed fields: not listed here. Fold resistance: result on the changed form divided by that on wild type. Lines come from different laboratories, so protocols vary. Two numbers with a dash give a range or band.

SMILES | method | cell line | strain or isolate | mutations | endpoint | tested at | value
COc1ccc(CN[C@@H](C(=O)N[C@H]2c3ccccc3C[C@H]2O)[C@H](O)[C@H](Cc2ccccc2)NC(=O)[C@@H](NC(=O)OCc2ccccc2)C(C)(C)C)cc1 | p24 | MT-4 | EHO | - | inhibition | 0.66 µM | 90%
CCCC(=O)O[C@H]1CN2CC[C@H](O)[C@@H]2[C@@H](O)[C@@H]1O | - | H9 | ROD | - | inhibition | 40 µM | 99%
O=C(N/N=C/c1ccc([N+](=O)[O-])cc1)c1csc(N2N=C(c3ccccc3)CC2c2ccc(Cl)cc2)n1 | MTT / absorbance | MT-4 | ROD | - | EC50 | - | >105.9 µM
CC(C)CN(C[C@@H](O)[C@H](Cc1ccccc1)NC(=O)[C@@H](NC(=O)CNCc1cccc(F)c1)C(C)(C)C)S(=O)(=O)c1cccc(N)c1 | virus yield | MT-2 | - | - | EC90 | - | 0.01 µM
CCOCn1c(Cc2ccccc2)c(C(C)C)c(=O)[nH]c1=O | cytopathic effect / MTT | MT-4 | EHO | RT-E219D | EC50 | - | 15.6 µM
N#CC[C@H](C1CCCC1)n1cc(-c2ncnc3[nH]ccc23)cn1 | p24 / ELISA | PBMC | - | - | EC90 | - | 0.4 µM
C1CNCCNCCCN(CCCN2CCCNCCNCCCNCC2)CCNC1 | antigen | CEM | ROD | - | EC90 | - | 1.49 µM
[B-]P(=O)([O-])CC[C@H]1O[C@@H](n2cc(C)c(=O)[nH]c2=O)C[C@@H]1N=[N+]=[N-] | syncytia | CEM | ROD | - | inhibition | 400 µM | 0%
CCc1cc(NCc2nc3c(Cl)ccc(Cl)c3o2)c(=O)[nH]c1C | cytopathic effect / MTT | MT-4 | EHO | RT-E219D | EC50 | - | 27 µM
O=C(N/N=C/c1ccc(F)cc1)c1csc(N2N=C(c3ccccc3)CC2c2ccc(Cl)cc2)n1 | MTT / absorbance | MT-4 | ROD | - | EC50 | - | >0.5 µM
CO[C@@H]1[C@@H](O)[C@@H](O)[C@H](O)[C@H](O)[C@H]1n1ccc(N)nc1=O | cytopathic effect / MTT | MT-4 | - | - | inhibition | 10 µg/mL | 45.2%
O=C(N/N=C/c1ccc(Cl)cc1Cl)c1csc(N2N=C(c3ccccc3)CC2c2ccc(Cl)cc2)n1 | MTT / absorbance | MT-4 | ROD | - | EC50 | - | >94.9 µM
CCc1c(C(=O)c2cc(C)cc(C)c2)n(CC2CC=CC2)c(=O)[nH]c1=O | cytopathic effect / XTT | CEM + CEM-SS | ROD | - | EC50 | - | 0.17 µM
Cc1cn([C@H]2C[C@H](N=[N+]=[N-])[C@@H](CO)O2)c(=O)[nH]c1=O | virus yield | CEM | LAV-2 | - | inhibition | 10 µM | 99%
C1CNCCNCCCN[C@H]([C@@H]2CNCCCNCCNCCCN2)CNC1 | cytopathic effect / MTT | MT-4 | EHO | - | EC90 | - | 0.87 µM
O=C(N/N=C/c1ccccc1)c1csc(N2N=C(c3ccccc3)CC2c2ccc(Cl)cc2)n1 | MTT / absorbance | MT-4 | ROD | - | EC50 | - | >0.45 µM
C#C[C@]1(CO)O[C@@H](n2cnc3c(N)nc(F)nc32)CC1O | β-galactosidase / absorbance | MAGIC-5A | ROD9 | K65R | fold resistance | - | 0.4
Cc1cn([C@H]2C[C@H](N=[N+]=[N-])[C@@H](CO)O2)c(=O)[nH]c1=O | ELISA | PBMC | 1814 | - | EC50 | - | 0.007 µM
O=C(N/N=C/c1ccc(OCc2ccccc2)cc1)c1csc(N2N=C(c3ccccc3)CC2c2ccc(Cl)cc2)n1 | MTT / absorbance | MT-4 | ROD | - | EC50 | - | >125 µM
CO[C@H]1[C@@H](O)[C@H](n2cnc3c(N)ncnc32)[C@@H](O)[C@H](O)[C@@H]1O | cytopathic effect / MTT | MT-4 | - | - | inhibition | 10 µg/mL | 57.6%
COc1cccc(/C=N/NC(=O)c2csc(N3N=C(c4ccccc4)CC3c3ccc(Cl)cc3)n2)c1O | MTT / absorbance | MT-4 | ROD | - | EC50 | - | >125 µM
COC(=O)C(Cc1ccccc1)NC(=O)[C@@H](NC(=O)[C@@H](C[C@H](O)[C@H](CC1CCCCC1)NC(=O)[C@@H](NC(=O)[C@H](Cc1ccccc1)CS(=O)(=O)C(C)(C)C)C(C)C)C(C)C)C(C)C | cytopathic effect / MTT | MT-4 | ROD | - | EC50 | - | 10.9 µM
CN=C1CN=C(c2ccc[nH]2)c2cc(Cl)ccc2N1 | antigen | CEM | UC-1 | - | EC90 | - | 1–5 µM
CC(C)[C@H](NC(=O)c1ccc2ccccc2n1)C(=O)N[C@@H](Cc1ccccc1)[C@H](O)CN1CC[C@@H](OCc2ccncc2)C[C@H]1C(=O)NC(C)(C)C | p24 | PBMC | ROD | - | inhibition | 0.158 µM | 90%
CO[C@H]1[C@@H](O)[C@H](n2ccc(N)nc2=O)[C@@H](O)[C@H](O)[C@@H]1O.O=C(O)/C=C/C(=O)O | cytopathic effect / MTT | MT-4 | - | - | inhibition | 10 µg/mL | 38.1%
O=C(N/N=C/c1ccc(Cl)cc1O)c1csc(N2N=C(c3ccccc3)CC2c2ccc(Cl)cc2)n1 | MTT / absorbance | MT-4 | ROD | - | EC50 | - | >0.45 µM
CC(C)=CCN1Cc2cccc3[nH]c(=S)n(c23)C[C@@H]1C | RT activity | PBMC | ROD | - | EC90 | - | >6.25 µM

Again, the opening 3 rows:

SMILES	method	cell line	strain or isolate	mutations	endpoint	tested at	value
COc1ccc(CN[C@@H](C(=O)N[C@H]2c3ccccc3C[C@H]2O)[C@H](O)[C@H](Cc2ccccc2)NC(=O)[C@@H](NC(=O)OCc2ccccc2)C(C)(C)C)cc1	p24	MT-4	EHO	-	inhibition	0.66 µM	90%
CCCC(=O)O[C@H]1CN2CC[C@H](O)[C@@H]2[C@@H](O)[C@@H]1O	-	H9	ROD	-	inhibition	40 µM	99%
O=C(N/N=C/c1ccc([N+](=O)[O-])cc1)c1csc(N2N=C(c3ccccc3)CC2c2ccc(Cl)cc2)n1	MTT / absorbance	MT-4	ROD	-	EC50	-	>105.9 µM